Assay: general procedure: Fmoc solid-phase peptide synthesis; Fmoc-Phe(OtBu)-Wang resin (0.5 mmol/g loading); Fmoc-Cys(Boc)-Wang resin (0.55 mmol/g loading) for Delta-C-ter variant; dicyclohexylcarbodiimide/1-hydroxy-7-azabenzotriazole (HOAT)
Details: oxidative folding step, several disulfide bridges, sequence written open

For --A--CLGQWDSCDPKASKCCPNYACEWKYPWCRYKLF-, the oxidative folding yield was 12%.
